PubChem BioAssay AID504761, Drosophila RNAi Screening Center, 2011
Assay: 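Fly genes whose silencing reduces dengue virus type 2 infection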 (primary screen). System: D.Mel-2 cells from Drosophila. Reagent: long dsRNA against Drosophila genes. Challenge: infection with dengue virus type 2; dose and infection time not stated. Detection: 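Cells stained for dengue envelope protein and imaged; percent of infected cells per well on duplicate plates, ranked by infection, with stained nuclei counted for cell number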. Direction: infection score: higher = more virus-infected cells; cell count: higher = more cells in the well. Rule for the call: 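Low infection ranks in the two replicates (chance level up to 0.065) followed by a retest with a 1.5-fold or larger significant decrease, p below 0.05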. Calls: active = confirmed: knock-down lowers infection; inactive = not picked or not confirmed.
In all, the deposit lists about 22,000 reagents; shown is an unselected part of those with a known target gene and a result. In the full data, 116 (0.52%) are marked active. 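Calls depend on retest data that are not deposited; infection was ranked per plate without normalising between plates; the unit of the infection score is not given.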 The raw values are shown without normalisation. A number with no mark means an inactive call. Names joined by + are all predicted targets of the reagent. Not all columns of the deposit are shown. Not stated in the record: the amount of reagent, the time to read-out.

After knock-down of CG4098 [DRSC10399], the screen gave infection score, replicate 1 = 3.18; cell count, replicate 1 = 6376. For CG31019 [DRSC13994] the deposit lists infection score, replicate 1 = 4.4; cell count, replicate 1 = 5824. CG31019 [DRSC26555] gave infection score, replicate 1 = 11.2; cell count, replicate 1 = 4576. After knock-down of CG14244 [DRSC14739], the record shows cell count, replicate 1 = 348. After knock-down of CG13578 [DRSC04214], the screen gave infection score, replicate 1 = 0.85; cell count, replicate 1 = 6258. PGRP-LF [DRSC28930] scored infection score, replicate 1 = 16.9; cell count, replicate 1 = 2379.

Depletion of CG14984 [DRSC08442] gave: infection score, replicate 1 = 4.13; cell count, replicate 1 = 6709. Silencing of CG14984 [DRSC27683] resulted in: infection score, replicate 1 = 23.7; cell count, replicate 1 = 5872. For CG15534 [DRSC15070] the deposit lists infection score, replicate 1 = 5.43; cell count, replicate 1 = 1325. CG15534 [DRSC26433] scored infection score, replicate 1 = 2.98; cell count, replicate 1 = 5977. With knock-down of CG17648 [DRSC00508], the record shows infection score, replicate 1 = 3.82; cell count, replicate 1 = 6365. With knock-down of sll [DRSC16271] the results were infection score, replicate 1 = 27.4; cell count, replicate 1 = 5108.

For sll [DRSC29864] the deposit lists infection score, replicate 1 = 4.92; cell count, replicate 1 = 2764. Depletion of Git [DRSC06620] came out at: infection score, replicate 1 = 28.1; cell count, replicate 1 = 5552. For Git [DRSC28567], the entry reads infection score, replicate 1 = 1.62; cell count, replicate 1 = 1355. After knock-down of frm [DRSC09753], the record shows infection score, replicate 1 = 2.89; cell count, replicate 1 = 6722. For frm [DRSC25370] the deposit lists infection score, replicate 1 = 8.42; cell count, replicate 1 = 6118. sotv + CG10731 [DRSC05930] scored infection score, replicate 1 = 5.37; cell count, replicate 1 = 5268.

sotv + CG10731 [DRSC05997] scored infection score, replicate 1 = 10.5; cell count, replicate 1 = 6502. Silencing of CG8379 [DRSC16414] gave: infection score, replicate 1 = 2.06; cell count, replicate 1 = 6403. Depletion of Trx2 [DRSC03622] resulted in: infection score, replicate 1 = 25; cell count, replicate 1 = 5583. Silencing of Trx2 [DRSC28288] gave: infection score, replicate 1 = 18.9; cell count, replicate 1 = 4824. Silencing of CG5174 [DRSC06920] gave: infection score, replicate 1 = 10.2; cell count, replicate 1 = 6291. Silencing of CG5174 [DRSC28048] gave: infection score, replicate 1 = 9.03; cell count, replicate 1 = 6110.

Silencing of Lip3 [DRSC16727] came out at: infection score, replicate 1 = 3.61; cell count, replicate 1 = 6241. After knock-down of Lip3 [DRSC29354], the record shows cell count, replicate 1 = 361. TTLL1B [DRSC08594] gave infection score, replicate 1 = 2.55; cell count, replicate 1 = 6088.

Looked up above.
Value of CG8379 [DRSC16414] under “infection score, replicate 1”: 2.06
Entry of CG5174 [DRSC06920] in “infection score, replicate 1”: 10.2
sotv + CG10731 [DRSC05930], infection score, replicate 1: 5.37
Result of CG14984 [DRSC27683] in “cell count, replicate 1”: 5872
